The values below come from paper PMC6426608.

Series [1] has as its system RhpR D70E (Pseudomonas savastanoi pv. phaseolicola 1448A). Kind of series: EMSA. As to conditions: EMSA: 40 ng probe in 20 ul of 10 mM Tris-HCl pH 7.4, 50 mM KCl, 5 mM MgCl2, 10% glycerol; room temperature 20 min; 6% PAGE, DNA dye; recombinant protein; residues 1-249; protein details: N-terminal His6 (pET28a); probe letters rebuilt from the primers and the genome.
The subject of series [2] is RhpR (Pseudomonas savastanoi pv. phaseolicola 1448A). Kind of series: EMSA. The settings on record: EMSA: 40 ng probe in 20 ul of 10 mM Tris-HCl pH 7.4, 50 mM KCl, 5 mM MgCl2, 10% glycerol; room temperature 20 min; 6% PAGE, DNA dye; recombinant protein; residues 1-249; protein details: N-terminal His6 (pET28a); probe letters rebuilt from the primers and the genome. (Mobility shift assays separate free from complexed probe on a gel.)

In the case of “TTGGATCCCCTTCTAAGTATTAAAGTCACAAGAGTGGAAATGTAACTATTTATGGTGTCTTGATAGACAGTTTGTGTTGTGCGTCATGACGGGGTGGGAGTTTACAGCAGGTGCGTTAGTTGCGAAGTCTCTGGCGGACTTTGGTTAGTGGCGGGAGGTGTAGGATATTTCCTAAATTAGTGTCATACATTTAAAATCTTGAGTTTTTACGTTGTTCCGGGTTTTTCATGGGTCTGTGCTTGTCTGTCCGGGCAGAGAATCCGAAGGGCAAATGTAACGGGGAGTATCAGTTTTTTTGTGTTCGGGCTGGTTAGGGCCTGCCGTCAGGCAGGCCCTTGTTCTCGAGAA (double strand) [fimA promoter]”, in series [1], the binding result is listed as “binds”.

Regarding “TTGGATCCAACCTTTTGAATTTGCTCACTTTTATTTGGCCTCTTGGATTTTCGTACCCGCTTTTGTACCCGCTACTATGTTTGCTTGGTAACGGTTGCGTTGCGTGCAGGTAATGGGAAATAAGCACAGGAGGCCGGAGTCGGCGGGTTGAAATGTCAGGTACGCCAACGCCAGCGGGCATGGGCCTTGATAACGCGCATCAAGAGTCTGCTGACCAACGTCACGGAGGGAGTCTCATTTGGAGGTTGCAGGACAGTATCGTACCCAATCCTACGGTGCAATATCATTGTACGATAGCAAAGCTGCGGATCTTAGGAGTGGCAGCCTCTCACTGATCTTTTTCTGTGCGCTAGAATTGACTCGAGAA (double strand) [trpG promoter]”, the binding result in series [2] is recorded as “binds”.

For “ATATATCTCGAGCCCTTTGCTTTGTCGCCAGCAGACCACCCTCGCGCCCGTGCTCCGCATGGGTATGCGGTTCCTGAAGCTCTGCGTCCGCTCTTGGGCGTGTGGTGCGGCGCAGATTTGTGACGCAGAGCGTCACCCACGGCATTCCCACGCTGGAGCGTGAGGAACGATCATCTCAACTATCGTGCGACGCTCCGCATTGCATGCCGTTCCGGGCGCTCTGCGTCCGCTCTTTGCGATTCCCACGTAGAGCGTGAGGAGCGATCATCTCAACTATCGTGCGACGCTCCGCGTCGCATGCCGTTCCGGGCGCTCTGCGTCCGCTCTGTGCGATTCCCACGCAGAGCGTGAGGAACGATCATCTCAACTATCGTGCGACGCTCCGCATTGCATGCCGTTCCGGACGCTCTGCGTCCGCTCTTGAAGATTTTCTGACTGCGCAAGGTATGCCGGTTTCACATTGCTTCTGCCTTTAAAGCCTTACCAGCACTGGCTTTGTAAAAGTTGGACAGCTTTTTGCAACAGGGTCGATACAGGTCGCCATCGGCGTCAATGTTTTGATCTAGTGCGCAGGTAAACAATCAGGATCCGTC (double strand) [flhA promoter]”, the binding result in series [1] is “binds”.

As to “TTCTCGAGACACTGTAACCGTCGTGTAACGCATCGCTGTTACACGACCTGTCCTACGATCCAACAGCAAATGCCAACATCGTGACGCCAGATAAACGTCAACTTTTCGACGACGCAATCTCGCCTGATTTTTTCATTAAAAAAAATCCACTTTTTTACGTAGTGGCTTTTTGGCTTTTTGCAGTAGTAGCACTTTCATATCCACCCCGCTGAAGTCCCCGCGCAATAAGGCTTTTAAGAAAAACGCCATCACCGCGATACTGCCCCTGTCACAAACTGGCTACAGCAAAATCCGCAAATCAGGACGAGTGGCCCGGAACTAAATGCGAATTCCTACGCTCCTACATCCCGTAACAATTCTGGACTGACGTGTAAGAGATCACTTACAGGTCGACTGGAAAAATGGGAAGTTACCGACAGGGAAGCCAGGTTCATGTAACGCTGGCGTCAGGTACCAGAACTAAACTCACATCACTAGTTGATGTTGTAGACAGGCGAAGCGCCCAACAGGTGTGATGCGCAGGATTCGACAAGGTCAGCCAAGGCTCTAGCCGGAGGCTTTCCGAACGAGGTCCGCCGTCGATCGTCAAACAGGAGTGGTTTACTACATCCAAGGAGAGCAGGGCCCTGCCCACCGGACAGGTCACTTGCCGCTTGTACTTAGTGTCATTTGAGTTCGCCTCACCTATTTGGGCACTCACTCATTAAATATGCCTGCGTTAGTTCCACGGCGTTGTTAGCCGTAGAGGATGGCGTGTGACATCTGCTGGCCAAAATTAATATCCAGCCAATTTATGGCGTGAAAAATCGAGGAGAATACGGGATCCAA (double strand) [algD promoter]”, the binding result in series [2] is “binds”.
